Assay results: the supplement of paper PMC11732987, “Enantioselective OTUD7B fragment discovery through chemoproteomics screening and high-throughput optimisation” (Communications Chemistry, 2025)
This is a selection; strong and weak results do not stand in their true shares.

The chains behind the UniProt entries cited, without tags or fusion partners.
UniProt Q9P275, whole entry, looked up: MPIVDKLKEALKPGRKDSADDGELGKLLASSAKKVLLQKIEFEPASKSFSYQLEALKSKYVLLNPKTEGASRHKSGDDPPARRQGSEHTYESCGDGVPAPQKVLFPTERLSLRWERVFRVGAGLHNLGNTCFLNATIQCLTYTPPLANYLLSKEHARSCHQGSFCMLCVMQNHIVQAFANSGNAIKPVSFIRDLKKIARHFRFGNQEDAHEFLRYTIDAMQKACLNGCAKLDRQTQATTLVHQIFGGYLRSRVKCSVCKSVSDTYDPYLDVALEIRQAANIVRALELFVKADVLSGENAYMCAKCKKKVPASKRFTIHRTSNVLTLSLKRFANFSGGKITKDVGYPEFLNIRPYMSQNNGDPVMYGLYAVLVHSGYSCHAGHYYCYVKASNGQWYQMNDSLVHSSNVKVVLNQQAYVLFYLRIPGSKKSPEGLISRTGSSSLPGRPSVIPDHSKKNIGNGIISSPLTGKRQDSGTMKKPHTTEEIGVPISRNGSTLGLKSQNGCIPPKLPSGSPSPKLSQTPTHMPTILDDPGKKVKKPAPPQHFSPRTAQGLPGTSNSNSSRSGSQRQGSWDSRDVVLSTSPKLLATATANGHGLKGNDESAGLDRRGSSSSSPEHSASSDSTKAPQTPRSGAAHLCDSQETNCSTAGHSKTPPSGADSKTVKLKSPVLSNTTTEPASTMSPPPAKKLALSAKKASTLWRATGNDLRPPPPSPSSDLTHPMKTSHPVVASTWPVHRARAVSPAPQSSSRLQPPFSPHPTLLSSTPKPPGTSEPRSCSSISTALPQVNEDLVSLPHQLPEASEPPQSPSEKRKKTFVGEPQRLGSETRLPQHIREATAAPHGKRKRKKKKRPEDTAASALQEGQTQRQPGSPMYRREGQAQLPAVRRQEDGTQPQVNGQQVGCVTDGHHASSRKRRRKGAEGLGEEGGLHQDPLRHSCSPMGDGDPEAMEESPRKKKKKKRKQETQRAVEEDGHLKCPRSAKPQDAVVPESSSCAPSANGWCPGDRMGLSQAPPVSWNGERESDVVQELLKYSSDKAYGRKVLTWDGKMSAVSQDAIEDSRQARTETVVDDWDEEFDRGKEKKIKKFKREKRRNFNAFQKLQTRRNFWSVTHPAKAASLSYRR
UniProt Q5T2D3, whole entry, looked up: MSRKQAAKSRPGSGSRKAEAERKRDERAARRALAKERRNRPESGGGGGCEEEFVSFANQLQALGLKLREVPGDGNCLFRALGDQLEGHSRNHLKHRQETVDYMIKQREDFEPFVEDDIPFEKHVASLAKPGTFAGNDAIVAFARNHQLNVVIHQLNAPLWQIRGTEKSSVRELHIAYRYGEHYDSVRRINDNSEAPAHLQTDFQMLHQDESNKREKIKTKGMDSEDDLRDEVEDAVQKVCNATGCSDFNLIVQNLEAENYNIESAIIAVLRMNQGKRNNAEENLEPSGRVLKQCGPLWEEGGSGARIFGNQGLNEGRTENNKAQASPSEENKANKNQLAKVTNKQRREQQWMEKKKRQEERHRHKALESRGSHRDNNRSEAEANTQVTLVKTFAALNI
UniProt Q6GQQ9, whole entry, looked up: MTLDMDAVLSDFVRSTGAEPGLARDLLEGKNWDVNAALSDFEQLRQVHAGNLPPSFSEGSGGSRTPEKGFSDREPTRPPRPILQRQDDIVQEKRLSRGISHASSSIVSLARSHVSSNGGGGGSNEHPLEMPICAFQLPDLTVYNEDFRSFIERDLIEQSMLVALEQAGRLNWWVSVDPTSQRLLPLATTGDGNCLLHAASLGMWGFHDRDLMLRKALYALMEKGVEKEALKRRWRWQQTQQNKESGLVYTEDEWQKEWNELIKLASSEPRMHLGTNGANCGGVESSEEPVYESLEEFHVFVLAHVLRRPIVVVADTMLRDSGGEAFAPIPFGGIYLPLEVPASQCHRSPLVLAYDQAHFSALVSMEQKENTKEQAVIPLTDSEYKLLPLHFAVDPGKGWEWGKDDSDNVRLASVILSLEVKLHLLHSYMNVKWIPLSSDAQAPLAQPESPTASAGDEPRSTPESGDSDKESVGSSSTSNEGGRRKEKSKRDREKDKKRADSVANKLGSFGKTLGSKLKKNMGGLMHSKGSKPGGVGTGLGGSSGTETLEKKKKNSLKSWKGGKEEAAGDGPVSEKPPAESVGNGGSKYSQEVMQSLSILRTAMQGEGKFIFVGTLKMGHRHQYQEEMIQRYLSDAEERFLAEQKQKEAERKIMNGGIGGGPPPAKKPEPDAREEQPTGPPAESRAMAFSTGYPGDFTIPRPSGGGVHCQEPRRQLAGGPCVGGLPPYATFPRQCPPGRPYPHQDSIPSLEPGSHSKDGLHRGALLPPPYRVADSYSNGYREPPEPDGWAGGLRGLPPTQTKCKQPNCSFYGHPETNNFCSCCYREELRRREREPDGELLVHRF
UniProt Q9NP73, whole entry, looked up: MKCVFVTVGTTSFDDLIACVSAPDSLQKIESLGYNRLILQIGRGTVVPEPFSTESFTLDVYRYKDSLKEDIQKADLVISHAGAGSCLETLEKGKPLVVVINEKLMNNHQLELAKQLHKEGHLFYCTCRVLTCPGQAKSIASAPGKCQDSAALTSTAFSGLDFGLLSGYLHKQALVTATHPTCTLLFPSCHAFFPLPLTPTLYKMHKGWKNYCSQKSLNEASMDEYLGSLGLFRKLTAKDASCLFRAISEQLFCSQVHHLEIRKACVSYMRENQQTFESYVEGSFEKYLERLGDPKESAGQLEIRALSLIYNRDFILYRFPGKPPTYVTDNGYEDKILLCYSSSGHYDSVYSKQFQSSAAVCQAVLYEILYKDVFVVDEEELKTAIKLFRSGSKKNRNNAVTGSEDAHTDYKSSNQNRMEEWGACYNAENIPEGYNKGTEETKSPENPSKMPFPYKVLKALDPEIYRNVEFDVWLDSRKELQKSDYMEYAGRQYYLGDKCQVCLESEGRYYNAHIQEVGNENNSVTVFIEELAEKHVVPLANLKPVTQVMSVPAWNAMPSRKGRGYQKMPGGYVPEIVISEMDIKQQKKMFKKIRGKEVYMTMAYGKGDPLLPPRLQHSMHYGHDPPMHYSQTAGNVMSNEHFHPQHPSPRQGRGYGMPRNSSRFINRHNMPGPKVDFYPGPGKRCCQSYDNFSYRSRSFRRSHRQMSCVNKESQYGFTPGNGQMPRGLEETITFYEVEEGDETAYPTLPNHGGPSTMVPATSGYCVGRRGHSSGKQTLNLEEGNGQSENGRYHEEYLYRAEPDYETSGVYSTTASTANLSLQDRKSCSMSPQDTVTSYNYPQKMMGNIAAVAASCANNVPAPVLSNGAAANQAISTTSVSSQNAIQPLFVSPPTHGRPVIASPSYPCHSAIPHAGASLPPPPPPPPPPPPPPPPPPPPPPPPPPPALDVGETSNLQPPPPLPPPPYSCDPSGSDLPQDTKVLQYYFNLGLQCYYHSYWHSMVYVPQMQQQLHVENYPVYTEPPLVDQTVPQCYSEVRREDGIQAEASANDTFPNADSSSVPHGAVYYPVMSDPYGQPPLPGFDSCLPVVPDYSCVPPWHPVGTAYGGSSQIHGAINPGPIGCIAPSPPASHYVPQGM
UniProt Q93009, whole entry, looked up: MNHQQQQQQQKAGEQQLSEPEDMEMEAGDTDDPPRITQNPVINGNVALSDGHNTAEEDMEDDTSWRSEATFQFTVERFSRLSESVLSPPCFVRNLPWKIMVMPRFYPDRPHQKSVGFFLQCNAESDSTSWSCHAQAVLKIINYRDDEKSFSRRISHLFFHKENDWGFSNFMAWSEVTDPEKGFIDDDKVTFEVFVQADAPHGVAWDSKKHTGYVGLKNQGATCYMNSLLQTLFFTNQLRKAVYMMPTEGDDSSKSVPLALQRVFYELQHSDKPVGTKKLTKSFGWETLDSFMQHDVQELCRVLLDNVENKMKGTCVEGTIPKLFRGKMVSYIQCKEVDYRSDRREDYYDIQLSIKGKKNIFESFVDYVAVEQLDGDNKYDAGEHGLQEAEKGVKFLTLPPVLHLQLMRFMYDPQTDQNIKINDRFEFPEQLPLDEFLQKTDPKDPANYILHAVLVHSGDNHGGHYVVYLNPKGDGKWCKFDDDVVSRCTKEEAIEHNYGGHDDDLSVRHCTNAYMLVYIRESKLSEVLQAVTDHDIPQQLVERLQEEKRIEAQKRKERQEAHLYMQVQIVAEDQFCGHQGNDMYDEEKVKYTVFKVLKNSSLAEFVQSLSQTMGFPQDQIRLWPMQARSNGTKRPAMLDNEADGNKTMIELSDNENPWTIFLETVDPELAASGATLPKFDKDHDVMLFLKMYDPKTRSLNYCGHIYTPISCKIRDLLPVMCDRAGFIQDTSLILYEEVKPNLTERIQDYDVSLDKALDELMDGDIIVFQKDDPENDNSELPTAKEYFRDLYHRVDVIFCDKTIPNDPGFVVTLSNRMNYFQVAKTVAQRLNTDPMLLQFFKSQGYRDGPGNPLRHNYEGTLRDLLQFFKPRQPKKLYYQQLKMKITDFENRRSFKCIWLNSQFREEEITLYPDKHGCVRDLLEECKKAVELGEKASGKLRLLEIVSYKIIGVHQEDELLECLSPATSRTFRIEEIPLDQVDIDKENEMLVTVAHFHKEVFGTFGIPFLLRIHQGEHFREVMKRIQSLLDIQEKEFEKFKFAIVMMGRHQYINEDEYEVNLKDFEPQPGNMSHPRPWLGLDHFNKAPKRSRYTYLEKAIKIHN
UniProt Q9Y5K5, whole entry, looked up: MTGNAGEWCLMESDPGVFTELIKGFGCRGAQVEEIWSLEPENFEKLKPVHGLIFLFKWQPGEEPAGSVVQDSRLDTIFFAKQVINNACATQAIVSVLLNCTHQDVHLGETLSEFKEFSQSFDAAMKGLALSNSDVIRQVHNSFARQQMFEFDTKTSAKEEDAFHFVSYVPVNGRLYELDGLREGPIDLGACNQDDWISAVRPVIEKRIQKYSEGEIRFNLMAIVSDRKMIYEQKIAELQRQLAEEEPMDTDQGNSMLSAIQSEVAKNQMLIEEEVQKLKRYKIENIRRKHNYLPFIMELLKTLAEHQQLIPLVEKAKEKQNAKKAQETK
UniProt Q8TE49, whole entry, looked up: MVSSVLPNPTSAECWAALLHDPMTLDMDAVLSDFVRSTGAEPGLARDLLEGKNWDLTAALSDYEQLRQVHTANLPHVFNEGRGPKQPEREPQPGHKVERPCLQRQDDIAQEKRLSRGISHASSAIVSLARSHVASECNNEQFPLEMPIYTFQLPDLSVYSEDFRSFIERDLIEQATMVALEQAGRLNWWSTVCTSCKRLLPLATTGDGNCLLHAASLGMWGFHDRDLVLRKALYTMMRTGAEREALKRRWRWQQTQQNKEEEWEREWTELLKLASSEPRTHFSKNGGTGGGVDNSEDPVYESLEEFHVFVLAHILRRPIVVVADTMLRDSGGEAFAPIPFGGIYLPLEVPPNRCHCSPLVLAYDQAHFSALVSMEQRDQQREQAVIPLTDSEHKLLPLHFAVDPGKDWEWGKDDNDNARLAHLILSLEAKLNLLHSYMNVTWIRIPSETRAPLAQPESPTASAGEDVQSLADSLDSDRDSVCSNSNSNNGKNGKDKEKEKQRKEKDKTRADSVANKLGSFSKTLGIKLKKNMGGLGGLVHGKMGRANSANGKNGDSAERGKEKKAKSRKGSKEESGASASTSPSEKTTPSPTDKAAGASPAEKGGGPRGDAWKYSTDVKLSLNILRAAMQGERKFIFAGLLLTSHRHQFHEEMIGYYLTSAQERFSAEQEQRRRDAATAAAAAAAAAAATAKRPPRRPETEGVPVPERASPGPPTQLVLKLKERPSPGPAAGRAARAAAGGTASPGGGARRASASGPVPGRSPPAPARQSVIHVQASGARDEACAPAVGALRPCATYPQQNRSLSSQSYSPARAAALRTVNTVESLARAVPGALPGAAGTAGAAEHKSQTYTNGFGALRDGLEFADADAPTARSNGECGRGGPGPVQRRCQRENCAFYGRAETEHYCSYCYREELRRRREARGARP

compound: CN(C)C1(CNC(=O)CCl)CCCCC1; assay: log2 ratio of Biotin-Ahx-Ub-VS probe labelling (fragment/DMSO); higher = less target engagement (more negative = stronger competition), active = hit call of the paper (q ≤ 0.05, log2 ratio ≤ -1); details: compound concentration: 200 uM; treatment time: 3 h
Experimental: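 Competitive ABPP in HEK293T cell lysate. Lysates were treated with each chloroacetamide fragment at 200 µM for 3 h, then with Biotin-Ahx-Ub-VS (0.5 µM, 1 h), NeutrAvidin-enriched and analysed by diaPASEF LC-MS/MS. Protein LFQ was median-normalised; average log2 ratio is fragment/DMSO from an unpaired t-test (n=3 treated, n=44 DMSO). Hits: q ≤ 0.05, log2 ratio ≤ -1, unique peptides ≥ 2.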

Question: UniProt Q6P2Q9 was tested. Which “log2 ratio of Biotin-Ahx-Ub-VS probe labelling” value (“log2 ratio” below) did it give?
Answer: inactive: 0.0605

Question: How did the “log2 ratio” value turn out when UniProt Q9P275 was run?
Answer: inactive: -0.237

Question: With UniProt Q5T2D3 as the target, how does the “log2 ratio” value read?
Answer: inactive: -0.401

Question: With UniProt Q6GQQ9 as the target, how does the “log2 ratio” value read?
Answer: inactive: -0.525

Question: How did the “log2 ratio” value turn out when UniProt Q9NP73 was run?
Answer: inactive: 0.248

Question: How did the “log2 ratio” value turn out when UniProt Q93009 was run?
Answer: inactive: -0.341

Question: How did the “log2 ratio” value turn out when UniProt Q96RU2 was run?
Answer: inactive: -0.485

Question: UniProt Q9Y5K5 was tested. Which “log2 ratio” value did it give?
Answer: inactive: -0.424

Question: With UniProt Q8TE49 as the target, how does the “log2 ratio” value read?
Answer: inactive: -0.393
